Measured values from several laboratories, pooled; numbers as filed in NIAID ChemDB.

Common to all: growth or infection tests; agent: Mycobacterium tuberculosis

Blank or dashed fields: not listed here. Fold resistance: result on the changed form divided by that on wild type. Conditions beyond the fields shown may differ between rows. Inhibition is in % at the dose shown (toxicity tests: loss of growth or viability). ECn: concentration that inhibits the pathogen or its effect by n%. A number after MIC or MFC names an inhibition level or a share of isolates. MIC bound comes from a single tested concentration.

SMILES	read-out	read by	mutations	cells	tested at	strain	setting	result
c1ccc(CCCNCCNCCC(c2ccccc2)c2ccccc2)cc1	MIC							37.5 µM
CCNc1nnc(-c2ccc(N)cc2)s1	inhibition	BACTEC			6.25 µg/mL	H37Rv		34%
CC1CN(c2cc3c(cc2F)c(=O)c(C(=O)O)cn3-c2ccc(F)cc2F)CC(C)O1	MIC					ATCC35801		7.24 µM
CN1C/C(=C\c2ccc(N(C)C)cc2)C(=O)/C(=C/c2ccc(N(C)C)cc2)C1	MIC bound	BACTEC				H37Rv		>12.5 µg/mL
CN(C)CCCN1c2ccccc2Sc2ccc(Cl)cc21	MIC					Isolate E (drug-resistant)		20 µg/mL
COc1cccc2c1c[n+](C)c1c3cc4c(cc3ccc21)OCO4	inhibition	BACTEC			12.5 µg/mL	H37Rv		0%
CCOC(=O)c1cc(CNc2cc(C)cc(C)c2)on1	MIC	low oxygen				H37Rv		14.4 µM
COC(=O)C1CC(OC(C)=O)C(O)C(O)C1OC(C)=O.[O]=[Os]=[O]	MIC bound	BACTEC				H37Rv		>12.5 µg/mL
CC(=O)/C(N=Nc1ccc(-c2nnc(Nc3ccc(C)cc3)s2)cc1)=C(\C)O	MIC	BACTEC				H37Rv		>6.25 µg/mL
CCN1C(=O)[C@@H]2[C@H](C1=O)[C@@H](C(=O)c1ccc(C)cc1)N1c3ccc4cccnc4c3C=C[C@H]21	MIC	reporter gene / fluorescence				H37Rv		>200 µM
CCOc1ccc(-n2c(-c3ccc(OC)cc3)cs/c2=N\NC(=O)COc2cnccn2)cc1	MIC					H37Rv		14 µg/mL
CCOc1ccc2c(c[n+](C)c3c4cc5c(cc4ccc23)OCO5)c1OC	inhibition	BACTEC			12.5 µg/mL	H37Rv		100%
CCCCCCCCCCc1c2nc(c(CCCCCCCCCC)c3ccc([nH]3)c(CCCCCCCCCC)c3ccc([nH]3)c(CCCCCCCCCC)c3nc1C=C3)C=C2	inhibition	resazurin			6.25 µg/mL	H37Rv		-7%
CCc1nc2ccccc2n1CCCCSc1nnc(-c2ccc(Cl)cc2)o1	fold resistance	turbidity / fluorescence	QcrB M342T			H37Rv		313
Cc1ccc2nc(Nc3ccc(Cl)cc3)cc(C(O)C3CCCCN3)c2c1	MIC bound	resazurin				H37Rv		<6.25 µg/mL
O=C(COc1cnccn1)N/N=c1\scc(-c2ccc(F)cc2)n1-c1ccc(Cl)cc1[N+](=O)[O-]	MIC					H37Rv		6.1 µg/mL
CCOC(=O)c1cc(CN(C)c2ccc(C(F)(F)F)cc2)on1	MIC	resazurin				H37Rv		1.8 µM
COC(=O)c1c(C(=O)OC)c2ccc3c4ncccc4ccc3n2c1C(=O)c1ccc(Cl)cc1	MIC	reporter gene / fluorescence				H37Rv		50 µM
O=c1cc(N2CCN(c3cc(=O)n4ccccc4n3)CC2)oc2ccccc12	MIC bound	resazurin				H37Rv		>6.25 µg/mL
CO[C@H]1/C=C/O[C@@]2(C)Oc3c(C)c(O)c4c(O)c(c(/C=N/N5CCN(C)CC5)c(O)c4c3C2=O)NC(=O)/C(C)=C\C=C\[C@H](C)[C@H](O)[C@@H](C)[C@@H](O)[C@@H](C)[C@H](OC(C)=O)[C@@H]1C	EC90	reporter gene / fluorescence				H37Rv		0.0061 µM
COc1nc2ccc(Br)cc2cc1[C@@H](c1ccccc1)[C@@](O)(CCN(C)C)c1cccc2ccccc12	MIC80	broth dilution	Bedaquiline-resistant I66M					10 µM
CCCCCCCCCCC[C@@H]1CCC[C@@H](C)N1	MIC					TAC-R		12.8 µg/mL
Cc1ccccc1Nc1nnc(-c2ccc(N)cc2)s1	inhibition	BACTEC			6.25 µg/mL	H37Rv		7%
CC(C)=CC[C@H](O)C1=CC(=O)c2c(O)ccc(O)c2C1=O	inhibition	BACTEC			12.5 µg/mL	H37Rv		28%
CCC1CCC(=NNC(=O)Cc2csc3nc(-c4ccc(Cl)cc4)cn23)CC1	MIC					H37Rv		<6.25 µg/mL
O=c1oc2cc(-n3c(=O)c4ccccc4c4ccccc4c3=O)ccc2c2ccccc12	MIC bound	BACTEC				H37Rv		>12.5 µg/mL
CO/N=C(\C)c1cccc(F)c1NS(=O)(=O)c1nc2c(F)cnc(OC)n2n1	MIC50	visual reading	INH RIF resistant			M22		1 µM
NC1CCN(c2c(F)cc3c(=O)c(C(=O)O)cn(C4CC4)c3c2Cl)C1	EC50			Macrophages		H37Rv	inside macrophages	<0.1 µg/mL
CC1CN(/N=C/c2ccc([N+](=O)[O-])o2)C(=O)O1	inhibition	resazurin			6.25 µg/mL	H37Rv		-5%
COC(=O)c1c(C(=O)OC)c2ccc3c4ncccc4ccc3n2c1C(=O)c1ccc([N+](=O)[O-])cc1	EC90	reporter gene / fluorescence				H37Rv		>100 µM
CCc1nc2ccc(C)cc2n1CCCCNc1ccc(C)cc1	MIC90	turbidity / fluorescence	QcrB M342T			H37Rv		48 µM
CCCCC(CC)CN1CN(CC(CC)CCCC)CC(C)(NCCNCCc2ccc(O)c(O)c2)C1	MIC							12.5 µM
CCc1c2c(nc3ccc(OCc4c(F)c(F)c(F)c(F)c4F)cc13)-c1cc3c(c(=O)n1C2)COC(=O)C3(O)CC	MIC	resazurin				H37Rv		5.46 µM
CCc1nc2ccccc2n1CCCCOc1ccccc1	MIC90	turbidity / fluorescence	Rv1339 V90M			H37Rv		6.2 µM
CC1CCC2(CC1)SCC(=O)N2NC(=O)Cc1csc2nc(-c3ccccc3)cn12.O	EC50					H37Rv		<6.25 µg/mL
CCCCC(CC)CN1CN(CC(CC)CCCC)CC(C)(NCCNCc2ccccc2Sc2ccccc2CO)C1	MIC							25 µM
CCOC(=O)c1cc(-c2ccc3cc(OC)ccc3c2)on1	MIC	low oxygen				H37Rv		13.2 µM
CC1CCCC2(C1)SC(C)C(=O)N2NC(=O)Cc1csc2nc(-c3ccc(Cl)cc3)cn12	inhibition				6.25 µg/mL	H37Rv		66%
CCc1c2c(nc3ccc(OCc4ccccc4Cl)cc13)-c1cc3c(c(=O)n1C2)COC(=O)C3(O)CC	MIC	resazurin	Extensively drug-resistant			XDR		24.18 µM
Nc1ccc(-c2nnc(Nc3ccccc3)s2)cc1	inhibition	BACTEC			6.25 µg/mL	H37Rv		0%
COc1cc(OC)c2c(c[n+](C)c3c4cc5c(cc4ccc23)OCO5)c1OC	inhibition	BACTEC			12.5 µg/mL	H37Rv		92%
S=C(Nc1ccccc1)Nc1ccc(-c2nnc(NC3CCCCC3)s2)cc1	inhibition	BACTEC			6.25 µg/mL	H37Rv		67%
CCOC(=O)c1cc(CNc2cc(F)cc(F)c2F)on1	MIC	resazurin				H37Rv		53.8 µM
CO[C@H]1/C=C/O[C@@]2(C)Oc3c(C)c(O)c4c(=O)c(c5oc6cc(N7CCN(CC(C)C)CC7)cc(=O)c6nc5c4c3=C2O)NC(=O)/C(C)=C\C=C\[C@H](C)[C@H](O)[C@@H](C)[C@@H](O)[C@@H](C)[C@H](OC(C)=O)[C@@H]1C	MIC					TN987		16 µg/mL
Nc1cc(-c2ccccc2)cn1-c1nnc(-c2ccc(Br)cc2)s1	MIC bound	resazurin				H37Rv		>6.25 µg/mL
C[n+]1cc2cc3c(cc2c2ccc4cc5c(cc4c21)OCO5)OCO3	inhibition	BACTEC			12.5 µg/mL	H37Rv		98%
Cc1cc(C)nc(NN=O)c1	inhibition	BACTEC			12.5 µg/mL	H37Rv		82%
CCc1c2c(nc3ccc(OCc4ccc(F)c(F)c4)cc13)-c1cc3c(c(=O)n1C2)COC(=O)C3(O)CC	MIC	resazurin	Extensively drug-resistant			XDR		12.06 µM
O=C(O)c1cn(-c2ccc(F)cc2F)c2cc(N3CCN(C(=O)C4COc5ccccc5O4)CC3)c(F)cc2c1=O	MIC					ATCC35801		5.53 µM
C=C1C(=O)N[C@@H](C)C(=O)N[C@H](CC(C)C)C(=O)N[C@H](C(=O)O)[C@H](C)C(=O)N[C@H](CCCN=C(N)N)C(=O)N[C@@H](/C=C/C(C)=C/[C@H](C)[C@H](Cc2ccccc2)OC)[C@@H](C)C(=O)N[C@@H](C(=O)O)CCC(=O)N1C	MIC	resazurin	Rifampicin-resistant					>53 µM
COc1c(C)c2c(c(O)c1C/C=C(\C)CCC(=O)O)C(=O)OC2	inhibition	BACTEC			12.5 µg/mL	H37Rv		2%
c1ccc(CNCCNCc2ccco2)cc1	MIC							50 µM
COc1ccc(CC2C3=C(CCCC3)CCN2c2cc3c(cc2[N+](=O)[O-])c(=O)c(C(=O)O)cn3C(C)(C)C)cc1	MIC					ATCC35801		6.04 µM
O=C1C=CC(=Nc2cc(Cl)c(O)c(Cl)c2)C=C1	MIC bound	BACTEC				H37Rv		>12.5 µg/mL
COc1ccccc1CCNCCNCc1ccccc1F	MIC							50 µM
CC1CN(c2cc3c(cc2F)c(=O)c(C(=O)O)cn3C(C)(C)C)CC(C)O1	MIC					ATCC35801		16.6 µM
COc1ccc2c3c1O[C@H]1C[C@@H](O)C=C[C@@]31CCN(C)C2	MIC bound	BACTEC				H37Rv		>12.5 µg/mL
O=C(Cc1csc2nc(-c3ccccc3)cn12)NN=C1CCCCC1	inhibition				6.25 µg/mL	H37Rv		47%
COc1ncc(F)c2nc(S(=O)(=O)Nc3ncccc3C(C)=O)nn12	MIC50	visual reading	INH RIF resistant			M23		0.5 µM
Nc1c(C(=O)O)c(Br)cc2c1C(=O)c1ccccc1C2=O	inhibition	BACTEC			12.5 µg/mL	H37Rv		35%
CCc1nc2ccccc2n1CCCCOc1ccccc1Cl	MIC90	turbidity / fluorescence	QcrB M342T			H37Rv		87 µM
Fc1ccc(NC(=S)SCc2ccc3c(c2)OCO3)cc1F	MIC bound	BACTEC				H37Rv		≤128 µg/mL
CCOC(=O)c1cc(C(=O)c2ccc(OC)cc2)n2c1ccc1c3ncccc3ccc12	MIC	reporter gene / fluorescence				H37Rv		>200 µM
C[C@H](O)CNCCNCCc1ccccc1	MIC							50 µM
CCOC(=O)c1cc(CNc2ccc(C(F)(F)F)cc2)on1	MIC	resazurin				H37Rv		6.5 µM
Clc1ccc(OCCCCn2ccnc2)cc1	MIC99	turbidity / fluorescence				H37Rv		>20 µM
O=C(Cc1csc2nc(-c3ccc(Cl)cc3)cn12)NN=C1CCCCC1	MIC					H37Rv		>6.25 µg/mL
NNC(=O)CNc1cccc(Br)c1	inhibition	BACTEC			12.5 µg/mL	H37Rv		15%
CC1(C)[C@H]2CC[C@@H](CNCCNCCC3=CCCCC3)[C@@H]1C2	MIC							25 µM
NNC(=O)c1ccncc1	MIC	resazurin / absorbance				H37Rv		0.04 µg/mL
CN[C@@H]1[C@H](O[C@H]2[C@H](O[C@H]3[C@H](O)[C@@H](O)[C@H](N=C(N)N)[C@@H](O)[C@@H]3N=C(N)N)O[C@@H](C)[C@]2(O)C=O)O[C@@H](CO)[C@H](O)[C@H]1O	MIC80	broth dilution	Isoniazid-resistant			35822		0.3 µM
COc1ccc(-c2cs/c(=N\NC(=O)COc3cnccn3)n2-c2ccc(Cl)cc2Cl)cc1	MIC					H37Rv		9.6 µg/mL
NC(=O)c1cnccn1	MIC					Isolate 11823 monodrug-resistant		>300 µg/mL
CCC1CCC2(CC1)SCC(=O)N2NC(=O)Cc1csc2nc(-c3ccccc3)cn12	EC50			VERO		H37Rv		<6.25 µg/mL
COC(=O)c1c(C(=O)OC)c2ccc3c4ncccc4ccc3n2c1C(=O)c1ccc(Br)cc1	EC90	reporter gene / fluorescence				H37Rv		>20 µM
CCOc1ccc(-n2c(-c3ccc(C)cc3)cs/c2=N\NC(=O)COc2cnccn2)cc1	MIC					H37Rv		12 µg/mL
CCc1nc2ccc(C)cc2n1CCCNc1ccc(Br)c(C)c1	fold resistance	turbidity / fluorescence	QcrB M342T			H37Rv		>152
Cc1c(C(=O)O)cc2n(c1=O)Cc1cc3ccccc3nc1-2	inhibition	resazurin			6.25 µg/mL	H37Rv		20%
NNC(=O)c1ccncc1	MIC80	broth dilution	Bedaquiline-resistant A63P					0.2 µM
COC(=O)C1C(OC(C)=O)C(C)C(O)C(C)(O)/C=C(\C)C2=C3C(=C(C)C(=O)c4c(O)c(c(C)c(OC(C)=O)c43)NC(=O)/C(C)=C/C=C\[C@](C)(O)C(O)[C@@H](C)C1O)OCO2	MIC bound	BACTEC				H37Rv		≤12.5 µg/mL
CC(C)CNC(=S)NNC(=O)COc1cnccn1	MIC					H37Rv		49 µg/mL
CC1=C(/C=C/C(C)=N/NC(=O)c2ccc[n+](C)c2)C(C)(C)CCC1.Cc1ccc(S(=O)(=O)[O-])cc1	MIC bound	BACTEC				H37Rv		>12.5 µg/mL
CCc1c2c(nc3ccc(OCc4ccccc4)cc13)-c1cc3c(c(=O)n1C2)COC(=O)C3(O)CC	MIC	resazurin				H37Rv		25.9 µM

The last 7 rows once more:

SMILES,read-out,read by,mutations,cells,tested at,strain,setting,result
CCc1nc2ccc(C)cc2n1CCCNc1ccc(Br)c(C)c1,fold resistance,turbidity / fluorescence,QcrB M342T,,,H37Rv,,>152
Cc1c(C(=O)O)cc2n(c1=O)Cc1cc3ccccc3nc1-2,inhibition,resazurin,,,6.25 µg/mL,H37Rv,,20%
NNC(=O)c1ccncc1,MIC80,broth dilution,Bedaquiline-resistant A63P,,,,,0.2 µM
COC(=O)C1C(OC(C)=O)C(C)C(O)C(C)(O)/C=C(\C)C2=C3C(=C(C)C(=O)c4c(O)c(c(C)c(OC(C)=O)c43)NC(=O)/C(C)=C/C=C\[C@](C)(O)C(O)[C@@H](C)C1O)OCO2,MIC bound,BACTEC,,,,H37Rv,,≤12.5 µg/mL
CC(C)CNC(=S)NNC(=O)COc1cnccn1,MIC,,,,,H37Rv,,49 µg/mL
CC1=C(/C=C/C(C)=N/NC(=O)c2ccc[n+](C)c2)C(C)(C)CCC1.Cc1ccc(S(=O)(=O)[O-])cc1,MIC bound,BACTEC,,,,H37Rv,,>12.5 µg/mL
CCc1c2c(nc3ccc(OCc4ccccc4)cc13)-c1cc3c(c(=O)n1C2)COC(=O)C3(O)CC,MIC,resazurin,,,,H37Rv,,25.9 µM